Laboratory results: patent publication US20220346382A1, “COMPOSITION FOR TREATING AND PREVENTING BACTERIAL GROWTH ON A SUBSTRATE” (PETROLIAM NASIONAL BERHAD (PETRONAS), priority 2019, published 2022)

Test: Corrosion rate by weight loss and pitting of carbon steel coupons immersed in the formulations
Conditions: seven days immersion, 35-40° C., weight loss

With `CSCC[C@@H](N)C(=O)O` [MT, D-Methionine] the corrosion rate was 0.03 mm/yr.
